Pooled drug test results. Numbers come from NIAID ChemDB, via PubChem.

All rows: whole-cell or culture tests; organism: HIV-1

ECn: concentration that inhibits the pathogen or its effect by n%. Blank or dashed fields: not listed here. Rows are shuffled and stem from different studies.

structure	endpoint	changes	method	strain or isolate	cell line	result
Cc1cc(Cl)cc(S)c1S(=O)(=O)Nc1nnc2c3ccccc3cnn12	EC50		cytopathic effect / XTT	RF	CEM	12.6 µM
Fc1cccc(F)c1CCNC(=S)Nc1ncc(Br)cn1	EC50		cytopathic effect / MTT	IIIB	MT-4	0.053 µg/mL
C=C(C)[C@@H]1CC[C@]2(NS(C)(=O)=O)CC[C@]3(C)[C@H](CC[C@@H]4[C@@]5(C)CC[C@H](OC(=O)CC(C)(C)C(=O)O)C(C)(C)[C@@H]5CC[C@]43C)[C@@H]12	EC50		RT activity	IIIB	MT-2	>0.199 µM
CCc1c(C)c2c(c(C)c1C1=NC(=O)C(c3cc(-c4c(C)c5c(c(C)c4CC)[C@](C)(O)C[C@@H]5C)[nH]c3O)=C1)[C@H](C)C[C@]2(C)O	EC50				CEM + CEM-4	2 µg/mL
O=C(Oc1ccccc1)c1cccn1S(=O)(=O)c1cc(Cl)ccc1[N+](=O)[O-]	EC50		cytopathic effect / MTT	IIIB	MT-4	>15.5 µM
CC(C)(C)OC(=O)N[C@@H](CC1CCCCC1)[C@@H](O)CC(=O)N[C@@H](CCC(=O)O)C(=O)NCCCc1ccccc1	EC50		syncytia	IIIB	C8166	<20 µg/mL
CCc1c(Sc2cc(C)cc(C)c2)n(COCc2ccccc2)c(=O)[nH]c1=O	EC50	RT-Y181I	syncytia	IIIB	CEM	0.11 µM
Cc1ccc(C2CC2)c(-c2ccc3c(c2C)CCCO3)c1[C@H](OC(C)(C)C)C(=O)O	EC90		luminescence	NL4-3	MT-4	0.0046 µM
CCN(CC)c1ccc(/C=N/NC(=O)CN2c3c(-c4ccccc4)n[nH]c3-c3ccccc3S2(=O)=O)cc1	EC50				PBMC	27.2 µM
CCc1c(Cc2cc(C)cc(C)c2)n(COCCO)c(=O)[nH]c1=O	EC50		syncytia	IIIB	CEM	0.028 µM
O=C(N[C@H]1c2ccccc2OC[C@H]1O)[C@H](Cc1ccccc1)C[C@H](O)C(=O)N1COC2(CCCC2)[C@H]1C(=O)NCc1c(Cl)cccc1Cl	EC50		p24	NL4-3	MT-4	<0.0625 µM
Cc1cc(S(=O)(=O)Nc2nnc3c4ccccc4cnn23)c(S)cc1Cl	EC50		p24	6R (AZT-resistant)	CEM	53.9 µM
COc1ccnc2[nH]cc(C(=O)C(=O)N3CCN(C(=O)c4ccccc4)C[C@H]3C)c12	EC50	GP120-R350K	RT activity	NL4-3(GP120-R350K) Recombinant	MT-2	0.038 µM
CC(C)c1c(Cc2ccccc2)nc(SCC(=O)c2cccs2)[nH]c1=O	EC50		syncytia	IIIB	C8166	0.28 µM
COc1cc(C)cc2c(-c3c(O)cc(O)c4c3C[C@H](C)N[C@H]4C)cc(-c3cc(-c4c(O)cc(O)c5c4C[C@H](C)N[C@H]5C)c4cc(C)cc(OC)c4c3O)c(O)c12	EC50		cytopathic effect / XTT	IIIRF		~20 µM
O=C(CN1c2c(-c3ccccc3)n[nH]c2-c2ccccc2S1(=O)=O)N/N=C/c1ccc(Cl)cc1	EC50				PBMC	6.5 µM
O=c1ccn([C@H]2CC[C@@H](CO)O2)c(=O)[nH]1	EC50		syncytia	IIIB	CEM	>250 µM
C=C(C)[C@@H]1CC[C@]2(NC(C)=O)CC[C@]3(C)[C@H](CC[C@@H]4[C@@]5(C)CC[C@H](OC(=O)CC(C)(C)C(=O)O)C(C)(C)[C@@H]5CC[C@]43C)[C@@H]12	EC50		RT activity	IIIB	MT-2	>0.199 µM
CC(C)c1c(Sc2ccccc2)n(COCCO)c(=O)[nH]c1=O	EC50	RT-K103N	syncytia	IIIB TIBO R82913-resistant (RT K103N)	CEM	≥10 µM
CCN(CC)C(=O)c1cccn1S(=O)(=O)c1cc(Cl)ccc1N	EC50		cytopathic effect / MTT	IIIB	MT-4	>146 µM
Cc1cn([C@H]2C=C[C@@H](CO)O2)c(=O)[nH]c1=O	EC50		syncytia	IIIB	CEM	0.52 µM
COc1ccc(/C=N/NC(=O)CN2c3c(-c4ccccc4)n[nH]c3-c3ccccc3S2(=O)=O)cc1OC	EC90				PBMC	>100 µM
CCOCn1c(Cc2ccccc2)c(CC)c(=O)[nH]c1=O	EC50	RT-K103N	syncytia	IIIB TIBO R82913-resistant (RT K103N)	CEM	0.29 µM
Cc1cc(NC(=S)NCCc2c(F)cccc2F)ncc1Br	EC50		cytopathic effect / MTT	IIIB	MT-4	0.019 µg/mL
CN(C)CCSc1nc(-c2ccncc2)cs1	EC50		RT activity	LAV	PBMC	33.3 µM
Cc1c(Cc2cccc3ccccc23)nc(Sc2cccs2)[nH]c1=O	EC50		syncytia	IIIB	C8166	43.3 µM
C=C(C)[C@@H]1CC[C@]2(NC(=O)CCN3CCCC3)CC[C@]3(C)[C@H](CC[C@@H]4[C@@]5(C)CC[C@H](OC(=O)CC(C)(C)C(=O)O)C(C)(C)[C@@H]5CC[C@]43C)[C@@H]12	EC50		RT activity	IIIB	MT-2	>0.199 µM
Cc1cccc(C)c1CNC(=O)[C@@H]1CCN1C(=O)[C@@H](O)C[C@@H](Cc1ccccc1)C(=O)N[C@H]1c2ccccc2OC[C@H]1O	EC50		p24	NL4-3	MT-4	<1 µM
CC(=O)O[C@H]1C[C@]2(C)[C@H]3[C@H](OC(C)=O)CC[C@]4(CO4)[C@]3(C)[C@@H](OC(C)=O)[C@H](OC(=O)c3ccccc3)[C@]2(C)O[C@]12COC(=O)C2	EC50		MTT / ELISA	IIIB	C8166	54.64 µg/mL
CCOCn1c(Sc2cc(C)cc(C)c2)c(CC)c(=O)[nH]c1=O	EC50	RT-Y181I	syncytia	IIIB	CEM	0.6 µM
O=C(NCc1c(F)cc(F)cc1F)c1cn2c(c(O)c1=O)C(=O)N[C@H]1COCC[C@H]12	EC50		luminescence	IIIB	MT-4	0.0122 µM
CC(=O)N[C@]12CC[C@@H](C(C)C)[C@@H]1[C@H]1CC[C@@H]3[C@@]4(C)CC[C@H](OC(=O)CC(C)(C)C(=O)O)C(C)(C)[C@@H]4CC[C@@]3(C)[C@]1(C)CC2	EC50		RT activity	IIIB	MT-2	>0.199 µM
CC(C)CCC[C@@H](C)[C@H]1CC[C@H]2[C@@H]3CC[C@H]4C[C@@H](CCC=C(c5cc(Cl)c(O)c(C(=O)O)c5)c5cc(Cl)c(O)c(C(=O)O)c5)CC[C@]4(C)[C@H]3CC[C@]12C	EC50		cytopathic effect	IIIB	CEM + CEM-SS	3 µM
O=C(CN1c2c(-c3ccccc3)n[nH]c2-c2ccccc2S1(=O)=O)N/N=C/c1ccccc1F	EC50				PBMC	>100 µM
CCCCCCCCCC(=O)Oc1ccc(COP(=O)(OCc2ccc(OC(=O)CCCCCCCCC)cc2)OP(=O)([O-])OC[C@@H]2C=C[C@H](n3ccc(=O)[nH]c3=O)O2)cc1	EC50		syncytia	IIIB	CEM	32 µM
CN(C)c1ccc(/C=N/NC(=O)CN2c3c(-c4ccccc4)n[nH]c3-c3ccccc3S2(=O)=O)cc1	EC90				PBMC	>100 µM
Fc1cccc(F)c1CCNC(=S)Nc1cccc(Br)n1	EC50		cytopathic effect / MTT	IIIB	MT-4	0.016 µg/mL
CC(C)=CCOc1cc(NC(=S)c2ccsc2C)ccc1Cl	EC50	RT-Y188L	syncytia	IIIB	CEM	0.06 µg/mL
CN(C)CCSc1cccc(-c2cc(-c3cccc(SCCN(C)C)c3)ncn2)c1	EC50		RT activity	LAV	PBMC	1.6 µM
O=C(OC1CCCCC1)c1cccn1S(=O)(=O)c1cc(Cl)ccc1[N+](=O)[O-]	EC50		cytopathic effect / MTT	IIIB	MT-4	>160 µM
Cc1cc2nc(-c3c(F)cccc3F)n(Cc3c(F)cccc3F)c2cc1C	EC50		RT activity	IIIB	MT-4	>6.15 µM
C=C(C)[C@@H]1CC[C@]2(COC(=O)CC(C)(C)CC(=O)O)CC[C@]3(C)[C@H](CC[C@@H]4[C@@]5(C)CC=CC(C)(C)[C@@H]5CC[C@]43C)[C@@H]12	EC50		p24	IIIB	H9	11.9 µM
Fc1cccc(F)c1CCNC(=S)Nc1ccc(Cl)cn1	EC50		cytopathic effect / MTT	IIIB	MT-4	0.0006 µg/mL
CCCCCCC(=O)Oc1ccc(COP(=O)(OCc2ccc(OC(=O)CCCCCC)cc2)OP(=O)([O-])OC[C@@H]2C=C[C@H](n3ccc(=O)[nH]c3=O)O2)cc1	EC50		syncytia	IIIB	CEM	35 µM
CCc1c(Cc2cccc3ccccc23)nc(SCC(=O)c2ccco2)[nH]c1=O	EC50		syncytia	IIIB	C8166	1.43 µM
CN1CCN(CCSc2nnc(-c3ccc4ccccc4c3)c3ccccc23)CC1	EC50		RT activity	LAV	PBMC	12.2 µM
O=C(CN1c2c(-c3ccccc3)n[nH]c2-c2ccccc2S1(=O)=O)N/N=C/c1cccc(Br)c1	EC90				PBMC	35.9 µM
CCc1c(Sc2ccccc2)n(COCc2ccccc2)c(=O)[nH]c1=O	EC50	RT-Y181I	syncytia	IIIB	CEM	0.35 µM
CC(C)c1c(Cc2cccc3ccccc23)nc(Sc2cccs2)[nH]c1=O	EC50		syncytia	IIIB	C8166	24.1 µM
COC(=O)[C@H](C)NC(O)(Oc1ccccc1)Oc1nc(N(C)C)nc(C(C)c2c(F)cccc2F)c1C	EC50		MTT		MT-4	0.007 µM
CCCCOC(=O)c1cccn1S(=O)(=O)c1cc(Cl)ccc1N	EC50		cytopathic effect / MTT	IIIB	MT-4	>200 µM
c1csc(-c2cc(-c3cccs3)nc(N3CCOCC3)n2)c1	EC50		RT activity	LAV	PBMC	48.5 µM
Cc1cn([C@@H]2C[C@H](OC(C(=O)O)P(=O)(O)O)[C@@H](O)[C@H]2O)c(=O)[nH]c1=O	EC50		syncytia	IIIB	CEM	>250 µM
Cc1noc(C)c1CNC(=O)[C@H]1N(C(=O)[C@@H](O)C[C@@H](Cc2ccccc2)C(=O)N[C@H]2c3ccccc3OC[C@H]2O)COC12CCCC2	EC50		p24	NL4-3	MT-4	<0.25 µM
CC(C)C(=O)Oc1ccc(COP(=O)(OCc2ccc(OC(=O)C(C)C)cc2)OP(=O)([O-])OC[C@@H]2C=C[C@H](n3ccc(=O)[nH]c3=O)O2)cc1	EC50		syncytia	IIIB	CEM	32 µM
Cn1cc(NC(=O)Nc2cc(C(=O)Nc3cc(C(=O)Nc4ccc(S(=O)(=O)O)c5cc(S(=O)(=O)O)ccc45)n(C)c3)n(C)c2)cc1C(=O)Nc1cc(C(=O)Nc2ccc(S(=O)(=O)O)c3cc(S(=O)(=O)O)ccc23)n(C)c1	EC50		cytopathic effect / XTT	IIIB	MT-4	3.3 µM
Fc1cccc(F)c1Cn1c(-c2c(F)cccc2F)nc2ccccc21	EC50		RT activity	IIIB	MT-4	2.01 µM
CN(CCCN)CCCNc1nc(-c2cccs2)cc(-c2cccs2)n1	EC50		RT activity	LAV	PBMC	67.7 µM
C[C@@H]1CCO[C@H]2Cn3cc(C(=O)NCc4ccc(F)cc4F)c(=O)c(O)c3C(=O)N12	EC90		luminescence	NL4-3	MT-4	0.0063 µM
CCOCn1c(Cc2ccccc2)c(C(C)C)c(=O)[nH]c1=O	EC50	RT-Y181C	syncytia	IIIB	CEM	0.22 µM
Cc1cn([C@H]2C=C[C@@H](OC(C(=O)O)P(=O)(O)O)C2)c(=O)[nH]c1=O	EC50		syncytia	IIIB	CEM	>250 µM
O=C(Nc1ccc(Cl)c(C(=O)OC2CCCCC2)c1)c1ccccc1F	EC50	RT-L100I	syncytia	IIIB	CEM	≥10 µg/mL
COc1ccc(/C=N/NC(=O)CN2c3c(-c4ccccc4)n[nH]c3-c3ccccc3S2(=O)=O)cc1	EC90				PBMC	81 µM
Cc1cn([C@H]2C[C@H](N=[N+]=[N-])[C@@H](CO)O2)c(=O)[nH]c1=O	EC50		MTT / ELISA	IIIB	C8166	0.0025 µg/mL
COc1cc2nc(-c3c(F)cccc3Cl)n(Cc3c(F)cccc3Cl)c2cc1Cc1c(F)cccc1Cl	EC50		RT activity	IIIB	MT-4	>18.75 µM
CCc1c(Sc2cc(C)cc(C)c2)n(COCCO)c(=S)[nH]c1=O	EC50	Nevirapine resistant (RT Y181C)	syncytia	IIIB	CEM	0.38 µM
Cc1ccc(C)n1-c1ccc(C(=O)O)c(O)c1	EC90		p24	IIIB X4 CLADE B	MT-2	2.81 µM
CN(C)Cc1ccc(-c2cccc(-c3ccc(CN(C)C)cc3)n2)cc1	EC50		RT activity	LAV	PBMC	1.6 µM

For reference, 8 entries again:

structure | endpoint | changes | method | strain or isolate | cell line | result
CC(C)c1c(Cc2ccccc2)nc(SCC(=O)c2cccs2)[nH]c1=O | EC50 |  | syncytia | IIIB | C8166 | 0.28 µM
COc1cc2nc(-c3c(F)cccc3Cl)n(Cc3c(F)cccc3Cl)c2cc1Cc1c(F)cccc1Cl | EC50 |  | RT activity | IIIB | MT-4 | >18.75 µM
COc1ccc(/C=N/NC(=O)CN2c3c(-c4ccccc4)n[nH]c3-c3ccccc3S2(=O)=O)cc1 | EC90 |  |  |  | PBMC | 81 µM
C=C(C)[C@@H]1CC[C@]2(COC(=O)CC(C)(C)CC(=O)O)CC[C@]3(C)[C@H](CC[C@@H]4[C@@]5(C)CC=CC(C)(C)[C@@H]5CC[C@]43C)[C@@H]12 | EC50 |  | p24 | IIIB | H9 | 11.9 µM
CC(C)C(=O)Oc1ccc(COP(=O)(OCc2ccc(OC(=O)C(C)C)cc2)OP(=O)([O-])OC[C@@H]2C=C[C@H](n3ccc(=O)[nH]c3=O)O2)cc1 | EC50 |  | syncytia | IIIB | CEM | 32 µM
CCc1c(Cc2cccc3ccccc23)nc(SCC(=O)c2ccco2)[nH]c1=O | EC50 |  | syncytia | IIIB | C8166 | 1.43 µM
Fc1cccc(F)c1CCNC(=S)Nc1ncc(Br)cn1 | EC50 |  | cytopathic effect / MTT | IIIB | MT-4 | 0.053 µg/mL
O=C(CN1c2c(-c3ccccc3)n[nH]c2-c2ccccc2S1(=O)=O)N/N=C/c1ccccc1F | EC50 |  |  |  | PBMC | >100 µM